Measurements reported in publication PMC6158557.
Where a protein sequence is shown, tags need not be part of it.

Biological target: T1, OmpR-His6 (UniProt P74982)
T1 sequence (looked up): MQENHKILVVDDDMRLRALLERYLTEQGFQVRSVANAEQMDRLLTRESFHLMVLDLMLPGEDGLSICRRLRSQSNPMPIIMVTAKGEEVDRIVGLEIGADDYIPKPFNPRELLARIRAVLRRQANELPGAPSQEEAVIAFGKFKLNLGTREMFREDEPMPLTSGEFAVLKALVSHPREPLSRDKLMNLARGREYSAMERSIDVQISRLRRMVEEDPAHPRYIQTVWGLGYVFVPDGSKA
Experiment: EMSA
Details: 20 mM Mg2+, recombinant protein, residues 1-239, protein details: N-terminal His6, probe letters rebuilt from the primers and the genome

| Sequence | binding result (complexes appear from 0.65 uM OmpR, F1, F3 or F4 and 16S rDNA tested alongside) | binding result (complexes observed at 1.31 uM OmpR (F2 at 0.65 uM)) |
| --- | --- | --- |
| ATTCGACCCGGTGGTTTACTGGATCAATCTGCGACGGGGAAAGCCATCCGTCTGCAAACAGAGGCTCATGGCCTGGTTACTCGGGAAGATGTTGCCATTCACCTGAGTCAGATGGTCGAAGATCCCGCAACCTATCATCAGATTTATGCACTCGTCGATCCCGGATTAGTTCGCGAAGTAAAAATAAATTAACAATAAATATGTCTTGATGTAACACTGAATCATGATTGATAATGCTTATCATATTGATATCGGTTATCATTACCTTGTTTACAATATGGATAAACAGTTGAACAAAGCACCCACAATGAATG (double strand) [F2 (phem-1, OBS-1)] | binds | – |
| CCGGTTCAATTAGCATTAACTCGATTTAAAATCAGTGATGGAATGACATTTAGCTAAGGCTCTACTCCATCACTGATCTAAATACATCAATCCACTCCATTCACACCACTCATCTTATTTCTGCCTAAATCATTCAGCTTACAAATTACTAATGAAAAGCAAGACATTGGAATAACAACTAATTAAGTCCAGGGTTGAAACCAATAGCGCATGGGGATGATAATCATTATCAACTTGCTCATAATATCAACTCAAAGAAAGTATCTTATGCACAAAGCAACATCCATAACGCAAAATGCAACC (double strand) [F4 (phem-2, OBS-2)] | – | binds |
